Data as given in patent US20240043504A1 (published 2024).

B1: mAb10982 (antibody, V domains shown)
VH: EVQLVESGGGLVQPGGSLRLSCAASGLTVSSNYMSWVRQAPGKGLEWVSVIYSGGTTYYADSVKGRFTISRHNSKNTLSLQMNSLRAEDTAVYYCARGEGANYYGMDVWGQGTTVTVSS
VL: QSVLTQPPSVSGAPGQRVTISCTGSSSNIGTGYDVHWYQQLPGTAPKLLIYGNSNRPSGVPDRFSGSKSGTSASLAITGLQAEDEADYYCQSYDSSLSGYVVFGGGTKLTVLG
B2: mAb10985 (antibody, V domains shown)
VH: EVQLVESGGGLVQPGRSLRLSCAASGFTFDDYAMHWVRQAPGKGLEWVSGISWNRGSIGYADSVKGRFTISRDNAKNSLYLQMSSLRAEDTALYYCAKDGERWDSVVVPSARNGMDVWGQGTTVTVSS
VL: B1 VL with T31A, Y100S, V101Y, G105T, L109V
B3: mAb10984 (antibody, V domains shown)
VH: EVQLVESGGGLVQPGGSLRLSCAASGLTVNRNYMSWVRQAPGKGLEWVSLIYSGGSTYYADSVKGRFTISRDNSKNTLYLQMNSLRLEDTAVYYCARGELGIPYGMDVWGQGTTVTVSS
VL: QSVLTQPPSVSAAPGQKVTISCSGSSSNIGNNYVSWYQQLPGTAPKLLIYDNNKRPSGIPDRFSGSKSGTSATLGITGLQTGDEADYYCGTWDSSLSAGVFGGGTKLTVLG
B4: mAb10939 (antibody, V domains shown)
VH: EVQLVESGGGLVQPGGSLRLSCAASGLTVSSNYMNWVRQVPGKGLEWVSVIYSGGSKFYVDSVKGRFTISRHNSKNTLYLQMNSLRPEDTAVYYCTRDAQYYGMDVWGQGTTVTVSS
VL: DIQMTQSPSSLSASVGDRVTITCRASQSISTYLHWYQQKPGEAPKLLIYAASSLQSGVPSRFSGSGSGTDFTLTISSLQPEDFATYYCQQSYSTPPEIFGQGTKLEIKR
B5: mAb10930 (antibody, V domains shown)
VH: EVQLVESGGGLVQPGRSLRLSCAASGFTFDDYAMYWVRQAPGKGLEWVSGISWNSGSIGYADSVKGRFTISRDNAKNSLYLQMNSLRAADTALYYCAKDKDWNSRGYYYYGMDVWGQGTTVTVSS
VL: not shown
B6: mAb10934 (antibody, V domains shown)
VH: not shown
VL: DIQMTQSPSSLSASVGDRVTITCQASQDIWNYINWYQQKPGKAPKLLIYDASNLKTGVPSRFSGSGSGTDFTFTISSLQPEDIATYYCQQHDDLPPTFGQGTKVEIKR
B7: mAb10938 (antibody, V domains shown)
VH: EVQLVESGGGLVQPGGSLRLSCAVSGFTVSSNYMSWVRQAPGKGLEWVSLIYSGGSTFYADSVKGRFTISRHNSKNTLYLQMNSLRAEDTAVYYCAREGGYSYDYNYWGQGTLVTVSS
VL: B6 VL with W30R, I33L, K55E, S65I, H91Y, D93N, P96I, K103R, V104L
B8: mAb10935 (antibody, V domains shown)
VH: EVQLVESGGGLVQPGGSLRLSCAASGFTVSSNYMSWVRQAPGKGLEWVSLIYSGGSTYYADSVKGRFTISRHNSKNTLYLQMNSLRSEDTAVYYCARVPLGDYYYGMDVWGQGTTVTVSS
VL: B6 VL with W30N, N31K, I33L, K55E, H91S, D93N, P96L, Q100G
B9: mAb10922 (antibody, V domains shown)
VH: EVQLVESGGGLVQPGGSLRLSCAASGFTFSIYEMNWVRQAPGKGLEWVSYITSSGTTIYYADSVKGRFTISRDNAKNSLYLQMNSLRAEDTAVYYCASSSSSGYYFDYWGQGTLVTVSS
VL: not shown

The binders below were run against SARS-COV-2 RBD-MMH (SARS-CoV-2 RBD extracellular domain with a C-terminal myc-myc-hexahistidine tag) (SARS-CoV-2) (assay: SPR Biacore 25C, mAb captured).

**Q.** For B1, which “50 nM Ag Bound (RU)” value is on record?
**A.** The value was 188 RU.

**Q.** What about the Kd of the same binder?
**A.** The Kd was 20.6 nM.

**Q.** What about the t1/2 of the same binder?
**A.** Its t1/2 is 4.3 min.

**Q.** Which results are given for B2?
**A.** 50 nM Ag Bound (RU): 749 RU; Kd: 1.54 nM; t1/2: 8 min

**Q.** Which results are given for B3?
**A.** 50 nM Ag Bound (RU): 387 RU; Kd: 2.39 nM; t1/2: 31.2 min

**Q.** For B4, which “50 nM Ag Bound (RU)” value is on record?
**A.** Its value is 241 RU.

**Q.** And the Kd?
**A.** Its Kd is 20 nM.

**Q.** What about the t1/2 of the same binder?
**A.** Its t1/2 is 3.4 min.

**Q.** B5 was tested. Which “50 nM Ag Bound (RU)” value did it give?
**A.** Its value is 328 RU.

**Q.** What about the Kd of the same binder?
**A.** The Kd was 20.8 nM.

**Q.** What about the koff of the same binder?
**A.** Its koff is 0.00185 s⁻¹.

**Q.** And the kon?
**A.** Its kon is 89000 M⁻¹ s⁻¹.

**Q.** What about the t1/2 of the same binder?
**A.** Its t1/2 is 6.2 min.

**Q.** With B6 as the binder, how does the Kd read?
**A.** The Kd was 4.32 nM.

**Q.** And the t1/2?
**A.** The t1/2 was 2.7 min.

**Q.** What does the source list for B7?
**A.** 50 nM Ag Bound (RU): 180 RU; Kd: 5.28 nM; t1/2: 33.2 min

**Q.** B8 was tested. Which “50 nM Ag Bound (RU)” value did it give?
**A.** Its value is 694 RU.

**Q.** What about the Kd of the same binder?
**A.** The Kd was 18.9 nM.

**Q.** What about the t1/2 of the same binder?
**A.** Its t1/2 is 2.9 min.

**Q.** What does the source list for B9?
**A.** 50 nM Ag Bound (RU): 786 RU; Kd: 5.11 nM; t1/2: 5.8 min

Changes are numbered by the printed parent chain.
